Compound potency records, mixed from different reports. Data source: NIAID ChemDB in PubChem.

All rows: whole-cell or culture tests; agent: Staphylococcus aureus; read-out: MIC

Conditions beyond the fields shown may differ between rows.

CC(=O)NC[C@H]1CN(c2ccc(C(=O)Nc3ccc(Cl)nc3)c(F)c2)C(=O)O1 ; strain: ATCC 29213 (linezolid-resistant) ; result: >64 µg/mL
NCCCCCCCNc1cc2c(cc1F)c(=O)c(C(=O)O)cn2-c1ccc(F)cc1F ; strain: ATCC 6538P ; result: 3.1 µg/mL
Cc1c(N2CC(N)C(C3CC3)C2)c(F)cn2c(=O)c(C(=O)O)cc(C3CC3)c12 ; strain: NCTC 10649M ; result: 0.01 µg/mL
COc1c(CN(C)C)cccc1C1OC(c2ccncc2)=NN1C(C)=Nc1ccccc1F ; strain: MTCC96 ; result: 50 µg/mL
CC(=O)NC[C@H]1CN(c2ccc(C(=O)NN)c(F)c2)C(=O)O1 ; strain: ATCC 29213 (linezolid-resistant) ; result: >64 µg/mL
O=C(O)c1cn(C2CC2)c2cc(NCCN3CCCC3)c(F)cc2c1=O ; strain: ATCC 6538P ; result: 1.56 µg/mL
CC(=O)NC[C@H]1CN(c2ccc3c(c2)OCc2nccn2-3)C(=O)O1 ; strain: 9TV ; result: 0.25 µg/mL
C=CCCC(=O)NC[C@H]1CN(c2ccc(N3CCOCC3)c(F)c2)C(=O)O1 ; strain: ATCC 29213 (linezolid-resistant) ; result: >64 µg/mL
CNC(=O)CC1NC(=O)c2csc(n2)-c2ccc(-c3nc(C(=O)NCCCN4CCOCC4)cs3)nc2-c2csc(n2)-c2csc(n2)C(C(O)c2ccccc2)NC(=O)CNC(=O)c2nc(sc2CN(C)C)C(C(C)C)NC(=O)c2nc1sc2C ; strain: ATCC 33591 (methicillin-resistant) ; result: 8 µg/mL
CC(=O)NC[C@H]1CN(c2ccc(-c3cc(CO)on3)c(F)c2)C(=O)O1 ; strain: UC9213 (methicillin-susceptible) ; result: 2 µg/mL
CNC(=O)CC1NC(=O)c2csc(n2)-c2ccc(-c3nc(C(=O)NCCCCCC(=O)O)cs3)nc2-c2csc(n2)-c2csc(n2)C(C(O)c2ccccc2)NC(=O)CNC(=O)c2nc(sc2CSc2cccc[n+]2[O-])C(C(C)C)NC(=O)c2nc1sc2C ; strain: ATCC 33591 (methicillin-resistant) ; result: 1 µg/mL
CN(C)c1cc(CNC2CCCC2)c(O)c2c1C[C@H]1C[C@H]3[C@H](N(C)C)C(=O)C(C(N)=O)=C(O)[C@@]3(O)C(=O)C1=C2O ; strain: MRSA5 (methicillin-resistant) ; result: 0.5 µg/mL
Cc1c(N2C[C@H](C3CC3)[C@@H](N)C2)c(F)cn2c(=O)c(C(=O)O)cc(C3CC3)c12 ; strain: NCTC 10649M ; result: 0.02 µg/mL
CNC(=O)CC1NC(=O)c2csc(n2)-c2ccc(-c3nc(C(=O)NCCC(=O)OC(C)(C)C)cs3)nc2-c2csc(n2)-c2csc(n2)C(C(O)c2ccccc2)NC(=O)CNC(=O)c2nc(sc2CSSC)C(C(C)C)NC(=O)c2nc1sc2C ; strain: ATCC 33591 (methicillin-resistant) ; result: 0.125 µg/mL
CSc1ccc(NC(=O)c2ccc(N3C[C@H](CNC(C)=O)OC3=O)cc2F)cn1 ; strain: ATCC 29213 (linezolid-resistant) ; result: >64 µg/mL
CN(C)c1cc(CNCC(C)(C)C)c(O)c2c1C[C@H]1C[C@H]3[C@H](N(C)C)C(=O)C(C(N)=O)=C(O)[C@@]3(O)C(=O)C1=C2O ; strain: MRSA5 (methicillin-resistant) ; result: 0.25 µg/mL
CC(=O)NC[C@H]1CN(c2ccc(-c3cnn(Cc4ccccc4)c3)c(F)c2)C(=O)O1 ; strain: UC9213 (methicillin-susceptible) ; result: 8 µg/mL
CC(=O)NC[C@H]1CN(c2ccc(C(=O)Nc3ccccn3)c(F)c2)C(=O)O1 ; strain: ATCC 29213 (linezolid-resistant) ; result: >64 µg/mL
Cc1ccc(-c2ccc(O)c3c2C[C@H]2C[C@H]4[C@H](N(C)C)C(=O)C(C(N)=O)=C(O)[C@@]4(O)C(=O)C2=C3O)cc1N ; strain: MRSA5 (methicillin-resistant) ; result: 0.25 µg/mL
C=CCn1cc(-c2ccc(N3C[C@H](CNC(C)=O)OC3=O)cc2F)cn1 ; strain: UC9213 (methicillin-susceptible) ; result: 4 µg/mL
CC(CO)Nc1cc2c(cc1F)c(=O)c(C(=O)O)cn2C1CC1 ; strain: ATCC 6538P ; result: 12.5 µg/mL
CNC(=O)CC1NC(=O)c2csc(n2)-c2ccc(-c3nc(COC(=O)N(C)CCCC(C)=O)cs3)nc2-c2csc(n2)-c2csc(n2)C(C(O)c2ccccc2)NC(=O)CNC(=O)c2nc(sc2CSc2nnc(C)s2)C(C(C)C)NC(=O)c2nc1sc2C ; strain: ATCC 33591 (methicillin-resistant) ; result: 0.5 µg/mL
CC(=O)NC[C@H]1CN(c2ccc(C(=O)Nc3ncc[nH]3)c(F)c2)C(=O)O1 ; strain: ATCC 29213 (linezolid-resistant) ; result: >64 µg/mL
Cn1cc(C(=O)O)c(=O)c2cc3cc(F)c(N4CCCCCCC4)cc3nc21 ; strain: LF11C128 (quinolone-resistant) ; result: 1 µg/mL
CC(=O)NCC1CN(c2ccc(N3CCN(c4ccccn4)CC3)c(F)c2)C(=O)O1 ; strain: ATCC 29213 (linezolid-resistant) ; result: >64 µg/mL
CC(=O)NC[C@H]1CN(c2ccc(-c3cnc(C(C)=O)s3)c(F)c2)C(=O)O1 ; strain: UC9213 (methicillin-susceptible) ; result: 1 µg/mL
CC[C@H]1OC(=O)[C@H](C)C(=O)[C@H](C)[C@@H](O[C@@H]2O[C@H](C)C[C@H](N(C)C)[C@H]2O)[C@](C)(OC)C[C@@H](C)C(=O)[C@H](C)[C@H]2N(CCCCn3cnc(-c4cccnc4)c3)C(=O)O[C@]12C ; strain: 33591 (erythromycin-resistant) ; result: >64 µg/mL
O=C(NC[C@H]1CN(c2ccc(C3CCS(=O)(=O)CC3)c(F)c2)C(=O)O1)C1CC1 ; strain: UC9213 ; result: 8 µg/mL
CNC(=O)CC1NC(=O)c2csc(n2)-c2ccc(-c3nc(COC(=O)NCCC(=O)O)cs3)nc2-c2csc(n2)-c2csc(n2)C(C(O)c2ccccc2)NC(=O)CNC(=O)c2nc(sc2CSc2ncccn2)C(C(C)C)NC(=O)c2nc1sc2C ; strain: ATCC 33591 (methicillin-resistant) ; result: 0.25 µg/mL
CN(C)c1cc(CNCc2ccccc2)c(O)c2c1C[C@H]1C[C@H]3[C@H](N(C)C)C(=O)C(C(N)=O)=C(O)[C@@]3(O)C(=O)C1=C2O ; strain: MRSA5 (methicillin-resistant) ; result: 0.5 µg/mL
NCCCCCCCCCCCCNc1cc2c(cc1F)c(=O)c(C(=O)O)cn2C1CC1 ; strain: ATCC 5278 (methicillin-resistant) ; result: >100 µg/mL
CNC(=O)CC1NC(=O)c2csc(n2)-c2ccc(-c3nc(C(=O)NCCC(=O)OC(C)(C)C)cs3)nc2-c2csc(n2)-c2csc(n2)C(C(O)c2ccccc2)NC(=O)CNC(=O)c2nc(sc2CSSc2nc3ccccc3[nH]2)C(C(C)C)NC(=O)c2nc1sc2C ; strain: ATCC 33591 (methicillin-resistant) ; result: 0.5 µg/mL
O=C(/C=C/c1ccccc1)NC[C@H]1CN(c2ccc(N3CCOCC3)c(F)c2)C(=O)O1 ; strain: ATCC 29213 (linezolid-resistant) ; result: >64 µg/mL
Cc1c(N2C[C@@H](N)[C@@H](C3CC3)C2)c(F)cn2c(=O)c(C(=O)O)cc(C3CC3)c12 ; strain: NCTC 10649M ; result: 0.02 µg/mL
CNC(=O)CC1NC(=O)c2csc(n2)-c2ccc(-c3nc(C(=O)NCCC(=O)OC(C)(C)C)cs3)nc2-c2csc(n2)-c2csc(n2)C(C(O)c2ccccc2)NC(=O)CNC(=O)c2nc(sc2CSSc2ccc(C(=O)O)cn2)C(C(C)C)NC(=O)c2nc1sc2C ; strain: ATCC 33591 (methicillin-resistant) ; result: 16 µg/mL
COc1c(CN(C)C)cccc1C1OC(c2ccncc2)=NN1C(C)=Nc1ccccc1Cl ; strain: MTCC96 ; result: 6.25 µg/mL
CNC(=O)CC1NC(=O)c2csc(n2)-c2ccc(-c3nc(COC(=O)N(C)CCCC(C)=O)cs3)nc2-c2csc(n2)-c2csc(n2)C(C(O)c2ccccc2)NC(=O)CNC(=O)c2nc(sc2CO)C(C(C)C)NC(=O)c2nc1sc2C ; strain: ATCC 33591 (methicillin-resistant) ; result: 1 µg/mL
CC(=O)NCC1CN(c2ccc(N3CCCCC3)c(F)c2)C(=O)O1 ; strain: ATCC 29213 (linezolid-resistant) ; result: >64 µg/mL
CSCc1cccc(N2CCN(c3cc4nc5c(cc4cc3F)c(=O)c(C(=O)O)cn5C)CC2)c1 ; strain: LF11C128 (quinolone-resistant) ; result: 4 µg/mL
C[C@@H](CO)Nc1cc2c(cc1F)c(=O)c(C(=O)O)cn2C1CC1 ; strain: ATCC 5278 (methicillin-resistant) ; result: 6.25 µg/mL
CNC(=O)c1ccc(N2C[C@H](CNC(C)=O)OC2=O)cc1F ; strain: ATCC 29213 (linezolid-resistant) ; result: >64 µg/mL
CNC(=O)CC1NC(=O)c2csc(n2)-c2ccc(-c3nc(C4=NC(C(=O)N5CCCC5C(N)=O)CO4)cs3)nc2-c2csc(n2)-c2csc(n2)C(C(O)c2ccccc2)NC(=O)CNC(=O)c2nc(sc2CO)C(C(C)C)NC(=O)c2nc1sc2C ; strain: ATCC 33591 (methicillin-resistant) ; result: 0.125 µg/mL
CCN(CC)CCN(CC)c1cc2c(cc1F)c(=O)c(C(=O)O)cn2C1CC1 ; strain: ATCC 5278 (methicillin-resistant) ; result: >100 µg/mL
CCC(=O)NC[C@H]1CN(c2ccc(C3CCS(=O)(=O)CC3)c(F)c2)C(=O)O1 ; strain: UC9213 ; result: 4 µg/mL
CO/N=C/c1ccc(/C=C/C(=O)NC[C@H]2CN(c3ccc(N4CCOCC4)c(F)c3)C(=O)O2)cc1 ; strain: ATCC 29213 (linezolid-resistant) ; result: >64 µg/mL

The last 6 rows once more:

compound,strain,result
C[C@@H](CO)Nc1cc2c(cc1F)c(=O)c(C(=O)O)cn2C1CC1,ATCC 5278 (methicillin-resistant),6.25 µg/mL
CNC(=O)c1ccc(N2C[C@H](CNC(C)=O)OC2=O)cc1F,ATCC 29213 (linezolid-resistant),>64 µg/mL
CNC(=O)CC1NC(=O)c2csc(n2)-c2ccc(-c3nc(C4=NC(C(=O)N5CCCC5C(N)=O)CO4)cs3)nc2-c2csc(n2)-c2csc(n2)C(C(O)c2ccccc2)NC(=O)CNC(=O)c2nc(sc2CO)C(C(C)C)NC(=O)c2nc1sc2C,ATCC 33591 (methicillin-resistant),0.125 µg/mL
CCN(CC)CCN(CC)c1cc2c(cc1F)c(=O)c(C(=O)O)cn2C1CC1,ATCC 5278 (methicillin-resistant),>100 µg/mL
CCC(=O)NC[C@H]1CN(c2ccc(C3CCS(=O)(=O)CC3)c(F)c2)C(=O)O1,UC9213,4 µg/mL
CO/N=C/c1ccc(/C=C/C(=O)NC[C@H]2CN(c3ccc(N4CCOCC4)c(F)c3)C(=O)O2)cc1,ATCC 29213 (linezolid-resistant),>64 µg/mL